A mixed list of measured activities; the numbers were collected in NIAID ChemDB.

Shared fields: growth or infection tests; species: HIV-1; cells: MT-4; read by: MTT / absorbance; measure: EC50

Conditions beyond the fields shown may differ between rows. ECn: concentration that inhibits the pathogen or its effect by n%.

structure | strain | result
CO[C@H]1CC2=CC(=O)O[C@@]23C[C@@H]1N1CCC[C@@H]13 | NL4-3 | 89 µM
CCc1c(CC23CC4CC(CC(C4)C2)C3)nc(SCC(=O)Nc2ccc(C(N)=O)cc2)[nH]c1=O | RES056 | ≥33.5 µM
O=C1C=C2C=C[C@@H]3C[C@@]2(O1)[C@H]1CCCCN31 | NL4-3 | 19.3 µM
COc1ccc(C(=O)CSc2nc(CC34CC5CC(CC(C5)C3)C4)c(C)c(=O)[nH]2)cc1 | IIIB | 2.55 µM
Cc1ccnc2c1NC(=O)c1cccnc1N2C1CC1 | IIIB | 0.05 µM
CO[C@H]1CC2=C([C@H]3CC4=CC(=O)O[C@@]45C[C@@H]3N3CCC[C@@H]35)C(=O)O[C@@]23C[C@@H]1N1CCC[C@@H]13 | NL4-3 | 63.9 µM
O=C(N/N=C/c1cccc(Cl)c1)c1csc(N2N=C(c3ccccc3)CC2c2ccc(Cl)cc2)n1 | IIIB | >64.5 µM
CCc1c(CC23CC4CC(CC(C4)C2)C3)nc(SCC(=O)Nc2ccccc2)[nH]c1=O | IIIB | 0.89 µM
Cc1cc(NS(=O)(=O)c2ccc([N+](=O)[O-])cc2)ccc1N1C(=O)c2ccc(Cl)cc2C1=O | IIIB | 0.003 µM
O=C(N/N=C/c1ccccc1)c1csc(N2N=C(c3ccccc3)CC2c2ccc(Cl)cc2)n1 | IIIB | >0.45 µM
Cc1cc(NC(=O)c2ccccc2)ccc1N1C(=O)c2ccc(Cl)cc2C1=O | IIIB | 0.161 µM
CC(=O)c1ccc(NC(=O)CSc2nc(CC34CC5CC(CC(C5)C3)C4)c(C)c(=O)[nH]2)c(Br)c1 | RES056 | >23.73 µM
O=C(N/N=C/c1cc([N+](=O)[O-])ccc1Cl)c1csc(N2N=C(c3ccccc3)CC2c2ccc(Cl)cc2)n1 | IIIB | >125 µM
CO[C@H]1[C@H]([C@H]2CC3=CC(=O)O[C@@]34C[C@@H]2N2CCC[C@@H]24)C2=CC(=O)O[C@@]23C[C@@H]1N1CCC[C@@H]13 | NL4-3 | 122 µM
CCc1c(CC23CC4CC(CC(C4)C2)C3)nc(SCC(=O)Nc2ccc(C#N)cc2)[nH]c1=O | IIIB | 0.82 µM
COc1ccc(/C=N/NC(=O)c2csc(N3N=C(c4ccccc4)CC3c3ccc(Cl)cc3)n2)cc1 | IIIB | >125 µM